Pooled drug test results. Numbers come from NIAID ChemDB, via PubChem.

All rows: growth or infection tests; agent: HIV-1; method: p24; measure: EC50

ECn: concentration that inhibits the pathogen or its effect by n%. Blank or dashed fields: not listed here. Rows are shuffled and stem from different studies.

smiles	strain or isolate	changes	cells	value
O=c1oc(C(CC2CC2)CC2CC2)cc(O)c1C(c1cccc(NS(=O)(=O)c2ccccc2)c1)C1CC1	IIIB		MT-4	4.1 µM
CC(C)(C)NC(=O)[C@@H]1CN(Cc2ccc3occc3c2)CCN1C[C@@H](O)C[C@@H](Cc1ccccc1)C(=O)N[C@H]1c2ccccc2C[C@H]1O	IIIB		MT-4	<0.1 µM
Cc1nnc(C[C@H](C[C@H](O)CN2CCN(C(C)(C)c3ncc(-c4ccc(F)cc4)o3)C[C@H]2C(=O)NCC(F)(F)F)C(=O)N[C@H]2c3ccccc3OC[C@H]2O)o1	V-18 Clinical isolate	PR-L10I M36I N37D M46I R57K L63P A71V G73S I84V L90M I93L	MT-4	<0.063 µM
COc1cc2c(cc1OC)[C@H](O)[C@H]1COC(=O)[C@@H]1[C@@H]2c1cc(OC)c(OC)c(OC)c1	IIIB		H9	0.389 µg/mL
Nc1ccn([C@@H]2CO[C@H](CO)S2)c(=O)n1	IIIB		H9	0.08 µM
CC(C)(C)NC(=O)[C@@H]1C[C@@H]2CCCC[C@@H]2CN1C[C@@H](O)[C@H](Cc1ccccc1)NC(=O)[C@H](CC(N)=O)NC(=O)c1ccc2ccccc2n1	Isolate A PR L10V/T12I/G16E/R57K/I64V	PR-L10V T12I G16E R57K I64V	PBMC	<0.025 µM
Nc1ccn([C@H]2CO[C@@H](CO)S2)c(=O)n1	IIIB		H9	0.3 µM
Cc1cccc(C)c1OCC(=O)N[C@@H](Cc1ccccc1)[C@@H](O)C[C@H](Cc1ccccc1)NC(=O)[C@H](C(C)C)N1CCCNC1=O	HXB2	PR-M46I L63P A71V V82F I84V	PBMC	<0.54 µM
COc1cc([C@@H]2c3cc4c(cc3[C@@H](Nc3ccc(NC(=O)C56CCC(C)(C(=O)O5)C6(C)C)cc3)[C@H]3COC(=O)[C@H]23)OCO4)cc(OC)c1O	IIIB		H9	0.0023 µg/mL
CCCc1nnc(C[C@H](C[C@H](O)CN2CCN(C(C)(C)c3ncc(-c4ccc(Cl)cc4)o3)C[C@H]2C(=O)NCC(F)(F)F)C(=O)N[C@H]2c3ccccc3OC[C@H]2O)o1	Q-60 Clinical isolate	PR-L10I N37S R41K M46I I54V I62V L63P A71V V77I V82A L90M I93L	MT-4	<0.008 µM
Cc1ccnc2c1NC(=O)c1cccnc1N2C1CC1	IIIB	RT-K103N	CEM	0.5 µg/mL
C[C@H]1/C=C/[C@@]2(C)CC[C@@H](C(C)(C)O)[C@@H]2[C@@H](O)C[C@](C)(O)/C=C/C1	95BRRJ010 X4		PBMC	<25 µM
Cc1cn([C@H]2C[C@H](N=[N+]=[N-])[C@@H](CO)O2)c(=O)[nH]c1=O	NL4-3 WT		MT-4	<0.03 µM
Cc1ccc(-c2ccc3c(c2)C=C(C(=O)Nc2ccc(C[N+](C)(C)C4CCOCC4)cc2)CCC3)cc1	HHA		PBMC	0.0032 µM
Cc1cn([C@H]2C[C@H](N=[N+]=[N-])[C@@H](CO)O2)c(=O)[nH]c1=O	M032690		PBMC	0.11 µM
Nc1ccn([C@H]2CC[C@@H](CO)O2)c(=O)n1	HxB2D(RT-D67G)	RT-D67G	PBMC	0.24 µM
CC(C)(C)OC(=O)N[C@@H](Cc1ccccc1)[C@H](O)CNC[C@@H](O)[C@H](Cc1ccccc1)NC(=O)C(C)(O)C(C)(C)C	A018C		PBMC	0.11 µM
Nc1ccn([C@H]2CC[C@@H](CO)O2)c(=O)n1	HXB2D (RT-K65R)	RT-K65R	CBMC	10.3 ± 1.2 µM
Cc1cn([C@H]2C[C@H](N=[N+]=[N-])[C@@H](CO)O2)c(=O)[nH]c1=O	CLADE C		PBL	0.02 µM
O=C(N[C@H]1c2ccccc2OC[C@H]1O)[C@H](Cc1nnc(-c2ccccc2)o1)C[C@H](O)CN1CCN(Cc2ccc(-c3ccc(Cl)cc3)o2)C[C@H]1C(=O)NCC(F)(F)F	NL4-3 WT		MT-4	<0.0156 µM
Cc1ccccc1Cc1cccc(C(=O)CC(=O)C(=O)O)c1		INTG-T66I S153Y		1.2 µM
CC(C)=CCN1Cc2cccc3[nH]c(=S)n(c23)C[C@@H]1C	HXB2		PBMC	0.05 µM
CCO/N=C(\c1ccc(Br)cc1)C1CCN(C2(C)CCN(C(=O)c3c(C)cc[n+]([O-])c3C)CC2)CC1	RU570 R5 CLADE G		PBMC	0.018 µM
Nc1ccn([C@H]2CO[C@@H](CO)S2)c(=O)n1	HXB2D		PBMC	0.1 µM
C[C@H](Cn1cnc2c(N)ncnc21)OCP(=O)(O)O	288C		PBMC	0.09 µM
COc1ccc(S(=O)(=O)N(CC(C)C)C[C@@H](O)[C@H](Cc2ccccc2)NC(=O)O[C@H]2CO[C@H]3OCC[C@H]32)cc1	Clinical isolate	PR-L10I K43T M46L I54L L63P A71T V82A L90M Q92K	PBMC	0.0024 µM
CC(C)(C)NC(=O)[C@@H]1CN(Cc2cc3cnccc3o2)CCN1C[C@@H](O)C[C@@H](Cc1ccccc1)C(=O)N[C@H]1c2ccccc2C[C@H]1O	IIIB		MT-4	<0.006 µM
COc1ccc2c(c1)N(C(=O)OC(C)C)[C@@H](CSC)C(=S)N2	IIIB	RT-K103N	CEM	0.003 µg/mL
COc1cc([C@@H]2c3cc4c(cc3[C@@H](Nc3ccc([N+](=O)[O-])cc3)[C@H]3COC(=O)[C@H]23)OCO4)cc(OC)c1O	IIIB		H9	0.055 µg/mL
Cc1occc1C(=S)Nc1ccc(Cl)c(/C=N/OC(C)(C)C)c1	IIIB	RT-K103N	CEM	≥1 µg/mL
CC(C)CN(C[C@@H](O)[C@H](Cc1ccccc1)NC(=O)[C@@H](NC(=O)CNCc1cccc(F)c1)C(C)(C)C)S(=O)(=O)c1cccc(N)c1	HXB2		MT-4	<0.0053 µM
Cc1cn([C@H]2C[C@H](N=[N+]=[N-])[C@@H](CO)O2)c(=O)[nH]c1=O	3TC-resistant (RT M184V) Clinical isolate	RT-M184V	PBMC	0.0005 µM
COc1cc([C@@H]2c3cc4c(cc3[C@@H](O[C@@H]3O[C@@H]5CO[C@@H](C)O[C@H]5[C@H](O)[C@H]3O)[C@H]3COC(=O)[C@H]23)OCO4)cc(OC)c1O	IIIB		H9	0.03 µg/mL
Cc1cn([C@H]2C[C@H](N=[N+]=[N-])[C@@H](CO)O2)c(=O)[nH]c1=O	X267-5 Clinical isolate ZDV-resistant	RT-M41L F116S T215Y	PBMC	0.6 µM
c1cc(CN2CCCNCCNCCCNCC2)ccc1CN1CCCNCCNCCCNCC1	CM235 CLADE E R5		PBMC	>0.5 µM
CC(C)(C)NC(=O)[C@@H]1C[C@@H]2CCCC[C@@H]2CN1C[C@@H](O)[C@H](Cc1ccccc1)NC(=O)[C@H](CC(N)=O)NC(=O)c1ccc2ccccc2n1	LAI Laboratory isolate		PBMC	0.011 µM
O=c1[nH]cnc2c1ncn2[C@H]1CC[C@@H](CO)O1	NL4-3		MT-2	0.31 µM
COC(=O)[C@H](C)NP(=O)(OC[C@@H]1C=C[C@H](n2cc(C)c(=O)[nH]c2=O)O1)Oc1ccc(Br)cc1	X267-2 Clinical isolate ZDV-resistant	RT-M41L T215Y	PBMC	0.00018 µM
CCO/N=C(\c1ccc(Br)cc1)C1CCN(C2(C)CCN(C(=O)c3c(C)cc[n+]([O-])c3C)CC2)CC1	R5-02 R5 clinical isolate		PBMC	0.0022 µM
Nc1ccn([C@@H]2CO[C@H](CO)S2)c(=O)n1	HXB2D (RT-K65R)	RT-K65R	PBMC	2.5 µM
Cc1nnc(C[C@H](C[C@H](O)CN2CCN(C(C)(C)c3ncc(-c4ccc(Cl)cc4)o3)C[C@H]2C(=O)NCC(F)(F)F)C(=O)N[C@H]2c3ccccc3OC[C@H]2O)o1	K-60 Clinical isolate	PR-L10I M46I I54V Q58E L63P I64V V77I V82F I84V L90M I93L	MT-4	<0.031 µM
COc1cc2c(cc1OC)[C@@H](Nc1ccc(C#N)cc1)[C@H]1COC(=O)[C@@H]1[C@@H]2c1cc(OC)c(O)c(OC)c1	IIIB		H9	<0.001 µg/mL
COc1ccc2c(O)c(C(c3cccc(NS(=O)(=O)c4cccc5cccnc45)c3)C3CC3)c(=O)oc2c1	IIIB		MT-4	>>10 µM
CC(C)(C)NC(=O)[C@@H]1CN(Cc2cc3ccncc3o2)CCN1C[C@@H](O)C[C@@H](Cc1ccccc1)C(=O)N[C@H]1c2ccccc2C[C@H]1O	IIIB		MT-4	<0.0125 µM
O=c1oc(C(CC2CC2)CC2CC2)cc(O)c1C(c1cccc(NS(=O)(=O)c2ccc(F)cc2)c1)C1CC1	IIIB		MT-4	2.2 µM
COc1cc2c(cc1OC)[C@@H](Nc1ccc([N+](=O)[O-])cc1)[C@H]1COC(=O)[C@@H]1[C@@H]2c1cc(OC)c(O)c(OC)c1	IIIB		H9	<0.001 µg/mL
Cc1nn(C)c2ncc(CN3CCN(C[C@@H](O)C[C@@H](Cc4ccccc4)C(=O)N[C@H]4c5ccccc5C[C@H]4O)[C@H](C(=O)NC(C)(C)C)C3)cc12	IIIB		MT-4	<0.006 µM
Cc1nnc(C[C@H](C[C@H](O)CN2CCN(Cc3ccc(-c4ccc(Cl)cc4)o3)C[C@H]2C(=O)NCC(F)(F)F)C(=O)N[C@H]2c3ccccc3OC[C@H]2O)o1	Q-60 Clinical isolate	PR-L10I N37S R41K M46I I54V I62V L63P A71V V77I V82A L90M I93L	MT-4	<0.031 µM
CC(C)CN(C[C@@H](O)[C@H](Cc1ccccc1)NC(=O)O[C@H]1CCOC1)S(=O)(=O)c1ccc(N)cc1	NL4-3	PR-D30N A71V	MT-4	<0.02 µM
Cc1cn([C@@H]2O[C@H](CO[Si](C)(C)C(C)(C)C)C3(OS(=O)(=O)C=C3N)[C@H]2O[Si](C)(C)C(C)(C)C)c(=O)n(C)c1=O	IIIB		CEM	0.024 µg/mL
CC(C)(C)NC(=O)[C@@H]1CN(C(=O)c2cnc3occc3c2)CCN1C[C@@H](O)C[C@@H](Cc1ccccc1)C(=O)N[C@H]1c2ccccc2C[C@H]1O	IIIB		MT-4	<0.1 µM
CC(C)CN(C[C@@H](O)[C@H](Cc1ccccc1)NC(=O)[C@H](CC(N)=O)NC(=O)c1ccc2ccccc2n1)C(=O)NC(C)(C)C	NL4-3	PR-L10R M46I V82T	MT-4	<0.1 µM
CC(C)Nc1cccnc1N1CCN(C(=O)c2cc3cc(NS(C)(=O)=O)ccc3[nH]2)CC1	HXB2D		PBMC	0.023 µM
CC(C)(c1ncc(-c2ccc(F)cc2)o1)N1CCN(C[C@@H](O)C[C@@H](Cc2nnc(-c3ccccc3)o2)C(=O)N[C@H]2c3ccccc3OC[C@H]2O)[C@H](C(=O)NCC(F)(F)F)C1	NL4-3 WT		MT-4	<0.008 µM
O=c1[nH]cnc2c1ncn2[C@H]1CC[C@@H](CO)O1	XM-T69SSS	RT-T69SSS L210W T215Y	PBMC	<38 µM
CC(C)(C)NC(=O)[C@@H]1CN(Cc2cnc3ccoc3c2)CCN1C[C@@H](O)C[C@@H](Cc1ccccc1)C(=O)N[C@H]1c2ccccc2C[C@H]1O	IIIB		MT-4	<0.003 µM
Cc1ccnc2c1NC(=O)c1cccnc1N2C1CC1	HXB2		PBMC	0.15 µM
O=C(NCc1ccc(F)cc1)c1nc(N2CCCCS2(=O)=O)c2cccnc2c1O	1357 Primary R5 strain		PBMC	<0.008 µM
O=C1CN=C(c2ccc[nH]2)c2cc(Cl)ccc2N1	IIIB/LAI		PBL	2.6 µM
COc1cncc(-c2cnc(C(C)(C)N3CCN(C[C@@H](O)C[C@@H](Cc4nnc(-c5ccccc5)o4)C(=O)N[C@H]4c5ccccc5OC[C@H]4O)[C@H](C(=O)NCC(F)(F)F)C3)o2)c1	Q-60 Clinical isolate	PR-L10I N37S R41K M46I I54V I62V L63P A71V V77I V82A L90M I93L	MT-4	<0.5 µM
CC(C)(C)NC(=O)[C@@H]1CN(Cc2cccnc2)CCN1C[C@@H](O)C[C@@H](Cc1ccccc1)C(=O)N[C@H]1c2ccccc2C[C@H]1O	Clinical isolate	PR-L10I V11I T12E I15V L19I R41K M46L L63 A71T V82A L90M	PBMC	0.21 µM
COc1ccc(CN[C@@H](C(=O)N[C@H]2c3ccccc3C[C@H]2O)[C@H](O)[C@H](Cc2ccccc2)NC(=O)[C@@H](NC(=O)OCc2ccccc2)C(C)(C)C)cc1	IIIB		Primary T4 cells + T4	0.035 µM
CCC(Cc1ccccc1)c1cc(O)c(C(c2cccc(NS(=O)(=O)c3cccnc3)c2)C2CC2)c(=O)o1	IIIB		MT-4	2.6 µM

The last 7 rows once more:

{"smiles": "Cc1ccnc2c1NC(=O)c1cccnc1N2C1CC1", "strain or isolate": "HXB2", "cells": "PBMC", "value": "0.15 µM"}
{"smiles": "O=C(NCc1ccc(F)cc1)c1nc(N2CCCCS2(=O)=O)c2cccnc2c1O", "strain or isolate": "1357 Primary R5 strain", "cells": "PBMC", "value": "<0.008 µM"}
{"smiles": "O=C1CN=C(c2ccc[nH]2)c2cc(Cl)ccc2N1", "strain or isolate": "IIIB/LAI", "cells": "PBL", "value": "2.6 µM"}
{"smiles": "COc1cncc(-c2cnc(C(C)(C)N3CCN(C[C@@H](O)C[C@@H](Cc4nnc(-c5ccccc5)o4)C(=O)N[C@H]4c5ccccc5OC[C@H]4O)[C@H](C(=O)NCC(F)(F)F)C3)o2)c1", "strain or isolate": "Q-60 Clinical isolate", "changes": "PR-L10I N37S R41K M46I I54V I62V L63P A71V V77I V82A L90M I93L", "cells": "MT-4", "value": "<0.5 µM"}
{"smiles": "CC(C)(C)NC(=O)[C@@H]1CN(Cc2cccnc2)CCN1C[C@@H](O)C[C@@H](Cc1ccccc1)C(=O)N[C@H]1c2ccccc2C[C@H]1O", "strain or isolate": "Clinical isolate", "changes": "PR-L10I V11I T12E I15V L19I R41K M46L L63 A71T V82A L90M", "cells": "PBMC", "value": "0.21 µM"}
{"smiles": "COc1ccc(CN[C@@H](C(=O)N[C@H]2c3ccccc3C[C@H]2O)[C@H](O)[C@H](Cc2ccccc2)NC(=O)[C@@H](NC(=O)OCc2ccccc2)C(C)(C)C)cc1", "strain or isolate": "IIIB", "cells": "Primary T4 cells + T4", "value": "0.035 µM"}
{"smiles": "CCC(Cc1ccccc1)c1cc(O)c(C(c2cccc(NS(=O)(=O)c3cccnc3)c2)C2CC2)c(=O)o1", "strain or isolate": "IIIB", "cells": "MT-4", "value": "2.6 µM"}